Results of unrelated studies side by side (data: NIAID ChemDB).

Shared fields: whole-cell or culture tests; agent: Measles virus; endpoint: EC50

Lines come from different laboratories, so protocols vary. ECn is the concentration giving n% inhibition of infection, replication or growth. Two numbers with a dash give a range or band. Blank or dashed fields: not listed here.

structure	cell line	strain or isolate	method	value
CCCc1cc(=O)oc2cc(O)c(C(=O)CC)c(O)c12	CV-1	Chicago-1	cytopathic effect	1 µg/mL
C[C@@]1(O)[C@H](O)[C@@H](COP(=O)(O)OP(=O)(O)OP(=O)(O)O)O[C@H]1n1ccc2c(N)ncnc21	CV-1		neutral red	>320 µM
CSc1nsc(-c2ccc(OCCCCOc3ccccc3)cc2)c1C#N	HEP-2/L-929/VERO		plaque count	0.5 µM
CSc1nsc(-c2ccc(C(F)(F)F)cc2)c1C#N	HEP-2	Edmonston	plaque count	>14 µM
COc1cc(OC)c(OC)cc1/C=N/N=C(/N)NO.Cc1ccc(S(=O)(=O)O)cc1	VERO		plaque count	>50 µM
CSc1nsc(-c2cc[n+](C)cc2)c1C#N	HEP-2	Edmonston	plaque count	>1000 µM
COc1cc(/C=N/N=C(/N)NO)cc(OC)c1OC.Cc1ccc(S(=O)(=O)O)cc1	VERO		plaque count	1.5 µM
CSc1nsc(-c2ccccn2)c1C#N	HEP-2	Edmonston	plaque count	>50 µM
CC(C)CS[C@@H]1C[C@H](n2cnc3c(N)ncnc32)[C@@H](O)[C@H]1O	CV-1		cytopathic effect	>100 µg/mL
CCNc1nc(=O)c2ncn([C@@H]3O[C@H](CO)[C@@H](O)[C@H]3O)c2c(=O)[nH]1	CV-1		neutral red	1.2 µM
CCCc1cc(=O)oc2cc(OS(=O)(=O)c3ccc(C)cc3)cc(O)c12	CV-1	Chicago-1	virus yield	<3 µg/mL
CSc1nsc(-c2ccc(OCCCCOc3ccc([N+](=O)[O-])cc3)cc2)c1C#N	HEP-2/L-929/VERO		plaque count	>0.5 µM
CSc1nsc(-c2ccc(Cl)cc2Cl)c1C#N	HEP-2	Edmonston	plaque count	>8 µM
Nc1ncnc2c1ncn2[C@H]1C[C@@H](CO)[C@H](O)[C@@H]1O	VERO		cytopathic effect	≥200 µg/mL
CSc1nsc(-c2ccc(OCCCCOc3ccc(C#N)cc3)cc2)c1C#N	HEP-2/L-929/VERO		plaque count	>2 µM
COc1ccc(/C=N/N=C(\N)NO)cc1.Cc1ccc(S(=O)(=O)O)cc1	VERO		plaque count	>50 µM
Nc1ncnc2c1ncn2[C@@H]1CC[C@@H](O)[C@H]1O	CV-1	BIL	cytopathic effect	>10 µg/mL
CCCc1cc(=O)oc2c3c(c4c(c12)OC(C)(C)[C@H](O)[C@@H]4O)O[C@H](C)[C@@H](C)[C@@H]3O	CV-1	Chicago-1	virus yield	<0.3 µg/mL
CS[C@@H]1C=C[C@H](n2cnc3c(N)ncnc32)C1	CV-1		neutral red	>100 µg/mL
Nc1ncnc2c1ncn2C1CC(COP(=O)(O)O)[C@@H](O)[C@H]1O	VERO		cytopathic effect	≥10 µg/mL
Nc1nc(=O)c2ncn([C@@H]3O[C@H](CO)[C@@H](O)[C@H]3O)c2c(=O)[nH]1	CV-1		neutral red	>100 µM
CC(C)CS[C@@H]1C[C@H](n2cnc3c(N)ncnc32)[C@@H](O)[C@H]1O	HEL	DAVIS	cytopathic effect	>100 µg/mL
N=C(N)c1ncn([C@@H]2O[C@H](CO)[C@@H](O)[C@H]2O)n1				1–100 µM
CSc1nsc(C)c1C#N	HEP-2	Edmonston	plaque count	>100 µM
CCOC(=O)c1ccc(OCCCCOc2ccc(-c3snc(SC)c3C#N)cc2)cc1	HEP-2/L-929/VERO		plaque count	>2 µM
Nc1ncnc2c1ncn2[C@H]1C[C@@H](N)[C@H](O)[C@@H]1O	CV-1		neutral red	>100 µg/mL
CSc1nsc(-c2ccc(OCCOc3ccc([N+](=O)[O-])cc3)cc2)c1C#N	HEP-2/L-929/VERO		plaque count	>1 µM
N#Cc1c(-c2ccccc2)nsc1Cl	HEP-2	Edmonston	plaque count	>20 µM

Repeating the first 2 entries:

| structure | cell line | strain or isolate | method | value |
|---|---|---|---|---|
| CCCc1cc(=O)oc2cc(O)c(C(=O)CC)c(O)c12 | CV-1 | Chicago-1 | cytopathic effect | 1 µg/mL |
| C[C@@]1(O)[C@H](O)[C@@H](COP(=O)(O)OP(=O)(O)OP(=O)(O)O)O[C@H]1n1ccc2c(N)ncnc21 | CV-1 |  | neutral red | >320 µM |